Key:
M2 muscarinic receptor = M2 muscarinic receptor (Rattus norvegicus, UniProt P10980); assay: Radioligand binding assay, [3H]-N-methylscopolamine, rat heart membranes; conditions: [3H]-NMS binding
M3 muscarinic receptor = M3 muscarinic receptor (Rattus norvegicus, UniProt P08483); assay: Radioligand binding assay, [3H]-N-methylscopolamine, rat submandibular gland membranes; conditions: [3H]-NMS binding

Chains of the proteins cited; added tags and fusions are not shown.
UniProt P10980, whole entry, looked up: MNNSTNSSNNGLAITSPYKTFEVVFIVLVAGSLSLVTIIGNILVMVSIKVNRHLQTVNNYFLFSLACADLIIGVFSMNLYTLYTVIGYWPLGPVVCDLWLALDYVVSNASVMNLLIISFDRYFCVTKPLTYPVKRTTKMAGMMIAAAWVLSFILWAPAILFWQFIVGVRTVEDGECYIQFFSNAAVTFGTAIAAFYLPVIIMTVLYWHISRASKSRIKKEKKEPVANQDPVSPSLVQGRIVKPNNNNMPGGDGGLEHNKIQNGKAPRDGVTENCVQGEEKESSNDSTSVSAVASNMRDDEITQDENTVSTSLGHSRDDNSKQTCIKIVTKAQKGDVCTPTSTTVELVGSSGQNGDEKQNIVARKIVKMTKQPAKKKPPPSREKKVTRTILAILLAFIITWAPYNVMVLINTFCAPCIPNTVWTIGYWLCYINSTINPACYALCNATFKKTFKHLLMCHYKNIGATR
UniProt P08483, whole entry, looked up: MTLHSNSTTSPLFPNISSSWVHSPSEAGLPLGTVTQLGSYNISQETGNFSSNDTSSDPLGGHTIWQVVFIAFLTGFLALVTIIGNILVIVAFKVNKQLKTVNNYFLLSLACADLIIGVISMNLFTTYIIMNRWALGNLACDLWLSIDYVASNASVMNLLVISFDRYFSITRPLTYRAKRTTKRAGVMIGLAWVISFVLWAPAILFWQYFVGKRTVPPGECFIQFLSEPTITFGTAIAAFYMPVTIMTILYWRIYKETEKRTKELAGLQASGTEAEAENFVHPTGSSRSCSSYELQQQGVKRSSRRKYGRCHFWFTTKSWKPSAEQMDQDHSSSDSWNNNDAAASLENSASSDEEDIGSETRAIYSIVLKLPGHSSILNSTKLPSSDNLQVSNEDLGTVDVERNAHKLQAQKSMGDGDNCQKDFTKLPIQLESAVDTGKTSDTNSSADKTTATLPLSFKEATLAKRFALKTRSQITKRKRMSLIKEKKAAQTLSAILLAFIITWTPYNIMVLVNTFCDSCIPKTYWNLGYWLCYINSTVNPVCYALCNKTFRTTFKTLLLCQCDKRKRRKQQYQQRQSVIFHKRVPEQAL

O=C(NC12CC1CN(Cc1ccccc1)C2)C(O)(c1ccccc1)c1ccccc1 (centres unmarked)
Receptor Binding Assay pKi M2 (M2 muscarinic receptor): 6.75 | Receptor Binding Assay pKi M3 (M3 muscarinic receptor): 6.96

Reference: patent US7592359B2, “Substituted azabicyclo hexane derivatives as muscarinic receptor antagonists” (Ranbaxy Laboratories Limited, priority 2003, dated 2009)
